T1: human Kv1.1 voltage-gated potassium channel (human), Q09470
T1 chain: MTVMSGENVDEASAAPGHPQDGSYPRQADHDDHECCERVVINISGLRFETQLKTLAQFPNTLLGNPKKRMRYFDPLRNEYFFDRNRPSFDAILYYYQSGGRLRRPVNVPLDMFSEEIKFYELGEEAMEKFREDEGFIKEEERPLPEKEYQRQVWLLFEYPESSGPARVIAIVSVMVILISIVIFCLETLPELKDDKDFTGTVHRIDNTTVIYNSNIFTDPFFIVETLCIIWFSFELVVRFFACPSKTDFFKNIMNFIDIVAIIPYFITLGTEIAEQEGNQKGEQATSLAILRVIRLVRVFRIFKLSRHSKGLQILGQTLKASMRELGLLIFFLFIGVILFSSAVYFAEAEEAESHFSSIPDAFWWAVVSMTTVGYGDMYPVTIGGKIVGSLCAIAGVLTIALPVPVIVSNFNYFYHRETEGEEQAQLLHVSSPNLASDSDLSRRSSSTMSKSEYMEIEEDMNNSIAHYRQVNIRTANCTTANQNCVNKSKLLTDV

T2: human Kv1.1 channel (human), Q09470
T2 chain: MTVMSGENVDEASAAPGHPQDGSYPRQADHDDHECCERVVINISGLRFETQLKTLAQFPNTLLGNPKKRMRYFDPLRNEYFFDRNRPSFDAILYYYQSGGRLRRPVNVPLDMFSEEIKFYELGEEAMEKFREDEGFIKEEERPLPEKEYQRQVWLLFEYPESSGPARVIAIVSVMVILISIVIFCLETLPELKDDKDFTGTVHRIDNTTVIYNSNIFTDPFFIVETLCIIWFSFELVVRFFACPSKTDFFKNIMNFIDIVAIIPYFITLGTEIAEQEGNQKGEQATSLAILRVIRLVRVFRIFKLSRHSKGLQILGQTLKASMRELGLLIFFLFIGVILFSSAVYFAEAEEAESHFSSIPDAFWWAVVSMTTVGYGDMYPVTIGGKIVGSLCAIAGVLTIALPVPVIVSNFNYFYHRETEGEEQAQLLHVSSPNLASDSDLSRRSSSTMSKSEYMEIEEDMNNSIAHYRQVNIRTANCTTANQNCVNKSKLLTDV

B1: OSK1 peptide analog M29A (peptide)
peptide: GVIINVKCKISRQCLEPCKKAGMRFGKCANGKCHCTPK
modifications: not checked
B2: OSK1 peptide analog P37E (peptide)
peptide: GVIINVKCKISRQCLEPCKKAGMRFGKCMNGKCHCTEK
modifications: not checked
B3: 20k PEG-OSK1[Ala12] (peptide)
peptide: GVIINVKCKISAQCLEPCKKAGMRFGKCMNGKCHCTPK
modifications: not checked
B4: OSK1 peptide analog N30A (peptide)
peptide: GVIINVKCKISRQCLEPCKKAGMRFGKCMAGKCHCTPK
modifications: not checked
B5: OSK1 T36E (peptide)
peptide: GVIINVKCKISRQCLEPCKKAGMRFGKCMNGKCHCEPK
modifications: not checked
B6: OSK1 K38E (peptide)
peptide: GVIINVKCKISRQCLEPCKKAGMRFGKCMNGKCHCTPE
modifications: not checked
B7: OSK1 K27E (peptide)
peptide: GVIINVKCKISRQCLEPCKKAGMRFGECMNGKCHCTPK
modifications: not checked
B8: OSK1 peptide analog R12A (peptide)
chain: GVIINVKCKISAQCLEPCKKAGMRFGKCMNGKCHCTPK
B9: OSK1 H34E (peptide)
peptide: GVIINVKCKISRQCLEPCKKAGMRFGKCMNGKCECTPK
modifications: not checked
B10: OSK1 peptide analog H34A (peptide)
peptide: GVIINVKCKISRQCLEPCKKAGMRFGKCMNGKCACTPK
modifications: not checked
B11: OSK1 peptide analog H34E (peptide)
peptide: GVIINVKCKISRQCLEPCKKAGMRFGKCMNGKCECTPK
modifications: not checked
B12: OSK1 K32E (peptide)
peptide: GVIINVKCKISRQCLEPCKKAGMRFGKCMNGECHCTPK
modifications: not checked
B13: OSK1 M29E (peptide)
peptide: GVIINVKCKISRQCLEPCKKAGMRFGKCENGKCHCTPK
modifications: not checked
B14: OSK1 peptide analog R12A, E16K, K20D (peptide)
peptide: GVIINVKCKISAQCLKPCKDAGMRFGKCMNGKCHCTPK
modifications: not checked
B15: OSK1 G31E (peptide)
peptide: GVIINVKCKISRQCLEPCKKAGMRFGKCMNEKCHCTPK
modifications: not checked
B16: OSK1 peptide analog K27A (peptide)
peptide: GVIINVKCKISRQCLEPCKKAGMRFGACMNGKCHCTPK
modifications: not checked
B17: OSK1 peptide analog L15E (peptide)
peptide: GVIINVKCKISRQCEEPCKKAGMRFGKCMNGKCHCTPK
modifications: not checked
B18: OSK1 peptide analog M29R (peptide)
peptide: GVIINVKCKISRQCLEPCKKAGMRFGKCRNGKCHCTPK
modifications: not checked
B19: OSK1 G26E (peptide)
peptide: GVIINVKCKISRQCLEPCKKAGMRFEKCMNGKCHCTPK
modifications: not checked
B20: 20k PEG-OSK1[Ala29] (peptide)
peptide: GVIINVKCKISRQCLEPCKKAGMRFGKCANGKCHCTPK
modifications: not checked
B21: OSK1 P37E (peptide)
peptide: GVIINVKCKISRQCLEPCKKAGMRFGKCMNGKCHCTEK
modifications: not checked
B22: OSK1 peptide analog S11R (peptide)
peptide: GVIINVKCKIRRQCLEPCKKAGMRFGKCMNGKCHCTPK
modifications: not checked
B23: OSK1 peptide analog T36E (peptide)
peptide: GVIINVKCKISRQCLEPCKKAGMRFGKCMNGKCHCEPK
modifications: not checked
B24: OSK1 peptide analog des1, V2G, R12A, E16K, K19R, K20D, H34A (peptide)
peptide: GIINVKCKISAQCLKPCRDAGMRFGKCMNGKCACTPK
modifications: not checked

Columns and labels:
[1] = target: T1, human Kv1.1 voltage-gated potassium …; assay: cell-based or functional assay
[2] = target: T3, human Kv1.3 voltage-gated potassium channel (human), P22001; assay: cell-based or functional assay
[3] = target: T1, human Kv1.1 voltage-gated potassium …; assay: IonWorks Quattro planar patch clamp; details: chains peptide; modification not given
[4] = target: T3, human Kv1.3 voltage-gated potassium …; assay: IonWorks Quattro planar patch clamp; details: chains peptide; modification not given
[5] = target: T2, human Kv1.1 channel (human), Q09470; assay: cell-based or functional assay
[6] = target: human Kv1.3 channel (human), P22001; assay: cell-based or functional assay
[7] = target: T3, human Kv1.3 voltage-gated potassium …; assay: PatchXpress electrophysiology; PX; details: chains peptide; modification not given
[8] = target: T1, human Kv1.1 voltage-gated potassium …; assay: PatchXpress electrophysiology; PX, IC50 Transit; details: chains peptide; modification not given
[9] = target: T3, human Kv1.3 voltage-gated potassium …; assay: PatchXpress electrophysiology; PX, IC50 Transit; details: chains peptide; modification not given

Binder	Kv1.1 (IC50, pM); whole cell patch clamp ePhys [1] [pM]	Kv1.3 (IC50, pM); whole cell patch clamp ePhys [2] [pM]	Kv1.3 Selectivity (=Kv1.1/Kv.3 IC50) [2] [fold]	Kv1.1 IC50 (IonWorks electrophysiology) [5] [pM]	Kv1.3 IC50 (IonWorks electrophysiology) [6] [pM]	WB/IFNg IC50 (human whole blood) [6] [nM]	WB/IL-2 IC50 (human whole blood) [6] [nM]	also measured
B1	3470	33	105	–	–	–	–	IC50 [3]: 2.62 nM; IC50 [4]: 0.074 nM
B2	15700	241	65	–	–	–	–	–
B3	–	–	–	–	–	–	–	WB/IFNg (IC50, nM); human whole blood [2]: 0.137 nM; WB/IL-2 (IC50, nM); human whole blood [2]: 0.27 nM
B4	10200	766	14	–	–	–	–	–
B5	–	–	–	> 3330	161	2.42	1.74	–
B6	–	–	–	34.3	25.8	0.713	0.526	–
B7	–	–	–	549	> 3330	7.14	5.55	–
B8	440	25	17	–	–	–	–	IC50 [7]: 0.008 nM; IC50 [8]: 0.644 nM; IC50 [9]: 0.008 nM
B9	–	–	–	1690	330	2.38	1.62	–
B10	12800	16	797	–	–	–	–	–
B11	39400	1320	30	–	–	–	–	–
B12	–	–	–	17.3	15.6	0.063	0.062	–
B13	–	–	–	> 3330	> 3330	24.6	27.1	–
B14	–	–	–	–	–	–	–	WB/IFNg (IC50, nM); human whole blood [2]: 0.092 nM; WB/IL-2 (IC50, nM); human whole blood [2]: 0.041 nM
B15	–	–	–	2.37	12	0.111	0.095	–
B16	–	289	35	–	–	–	–	–
B17	65000	190	342	–	–	–	–	–
B18	23000	760	30	–	–	–	–	–
B19	–	–	–	> 3330	> 3330	100	100	–
B20	–	–	–	–	–	–	–	WB/IFNg (IC50, nM); human whole blood [2]: 5.58 nM; WB/IL-2 (IC50, nM); human whole blood [2]: 5.76 nM
B21	–	–	–	622	62.7	1.6	0.239	–
B22	9130	40	228	–	–	–	–	–
B23	83900	1920	44	–	–	–	–	–
B24	–	–	–	–	–	–	–	WB/IL-2 (IC50, nM); human whole blood [2]: 1.5 nM
